Measured values from several laboratories, pooled; numbers as filed in NIAID ChemDB.

Common to all: tests in culture; agent: Candida albicans; endpoint: MIC

Neighbouring rows are from separate reports.

structure,strain or isolate,result
CCOC(=O)C1=C(C)NC(=O)/C1=C\c1c(O)[nH]c(=O)[nH]c1=O,-,>100 µg/mL
CC(n1ncn(-c2ccc(-n3ccnn3)cc2)c1=O)C(O)(Cn1cncn1)c1ccc(F)cc1F,TA,0.03 µg/mL
COc1ccccc1C(=O)Nc1ccc2oc(-c3ccccc3)nc2c1,RSKK 628,25 µg/mL
CCC(C)n1ncn(-c2ccc(N3CCN(c4ccc(OC[C@H]5CO[C@](Cn6cncn6)(c6ccc(Cl)cc6Cl)O5)cc4)CC3)cc2)c1=O,TIMM1850,0.016 µg/mL
CCC(C)CC(C)CCCCCCCCC(=O)N[C@H]1C[C@@H](O)[C@@H](OCCN)NC(=O)[C@@H]2C[C@@H](O)CN2C(=O)[C@H]([C@H](O)CC(N)=O)NC(=O)[C@H]([C@H](O)[C@@H](O)c2ccc(O)cc2)NC(=O)[C@@H]2C[C@@H](O)CN2C(=O)[C@H]([C@@H](C)O)NC1=O,40 isolates,16 µg/mL
O=C(Nc1ccc2oc(-c3ccccc3)nc2c1)c1ccccc1,RSKK 628,25 µg/mL
Cc1c(Sc2ccccc2)[n+](=O)c2cc(Cl)ccc2n1[O-],Clinical isolate 1,31.25 µg/mL
CC1CCCC[C@H]2C(=O)CC[C@H]3OC(/C=C/C=C/C=C/C(=O)O)=C(C(=O)O1)[C@@H]32,-,>64 µg/mL
O=C(Cc1ccccc1)Nc1ccc2oc(-c3ccccc3)nc2c1,RSKK 628,50 µg/mL
CC(C)=CCOC(Cn1ccnc1)c1ccc(Cl)cc1Cl,TIMM0144,80–160 µg/mL
CCOc1cc2c(cc1F)n([O-])c(C)c(S(=O)(=O)c1ccccc1)[n+]2=O,Clinical isolate 14,31.25 µg/mL
CC(N1CCN(c2ccc(-n3cncn3)cc2)C1=O)C(O)(Cn1cncn1)c1ccc(F)cc1F,TIMM1756,0.002 µg/mL
CN(CCCC#CC(C)(C)C)c1cccc2c1CCC(=O)N2,Clinical isolate 22,31.5 µg/mL
Clc1ccccc1C(c1ccccc1)(c1ccccc1)n1ccnc1,-,6.25 µg/mL
CCCCCCCCC[C@H]1NC(=O)[C@H](CC(C)(C)C)NC(=O)[C@H](CCCN)NC(=O)CNC(=O)C1(F)F,-,64 µg/mL
CC(N1CCN(c2ccc(-n3nccn3)cc2)C1=O)C(O)(Cn1cncn1)c1ccc(F)cc1F,TA,<0.008 µg/mL
O=C(Cc1ccc(Cl)cc1)Nc1ccc2oc(-c3ccccc3)nc2c1,RSKK 628,50 µg/mL
CCCCCCCCCC[C@@H]1NC(=O)[C@H](CC(C)(C)C)NC(=O)[C@H](CCCCN)NC(=O)CNC(=O)[C@H]1O,-,32 µg/mL
CCOC(=O)c1c(C)[nH]c(O)c1C(C)=O,-,>100 µg/mL
CCCCCCCCC[C@@H]1NC(=O)[C@H](CC(C)(C)C)NC(=O)[C@H](CCCN)NC(=O)CNC(=O)C1(F)F,-,16 µg/mL
O=[N+]([O-])c1c[nH]c(Cl)c1Cl,-,100 µg/mL
C[C@H](n1ccn(-c2ccc(-n3cccn3)cc2)c1=O)[C@@](O)(Cn1cncn1)c1ccc(F)cc1F,TA,0.004 µg/mL
Cc1c(Sc2ccccc2)[n+](=O)c2cc(C(F)(F)F)ccc2n1[O-],Clinical isolate 7,31.25 µg/mL
CCc1ccc(-c2nc3cc(NC(=O)Cc4ccccc4)ccc3o2)cc1,RSKK 628,50 µg/mL
CCC(C)CC(C)CCCCCCCCC(=O)N[C@@H]1C[C@@H](O)[C@@H](O)NC(=O)[C@@H]2[C@@H](O)CCN2C(=O)[C@H]([C@@H](O)CCN)NC(=O)[C@H]([C@H](O)[C@@H](O)c2ccc(O)cc2)NC(=O)[C@@H]2C[C@@H](O)CN2C(=O)[C@H]([C@H](C)O)NC1=O,40 isolates,0.25 µg/mL
CC(n1ncn(-c2ccc(-n3ncnn3)cc2)c1=O)C(O)(Cn1cncn1)c1ccc(F)cc1F,TA,0.002 µg/mL
Cc1ccc(C(=O)Nc2ccc3oc(-c4ccccc4)nc3c2)c(C)c1,RSKK 628,25 µg/mL
CC(n1ncn(-c2ccc(-n3cccn3)cc2)c1=O)C(O)(Cn1cncn1)c1ccc(F)cc1F,TA,0.002 µg/mL
COc1ccc(C(=O)Nc2ccc3oc(-c4ccccc4)nc3c2)c(OC)c1,RSKK 628,25 µg/mL
Cc1c(S(=O)(=O)c2ccccc2)[n+](=O)c2ccccc2n1[O-],Clinical isolate 10,31.25 µg/mL
CC(N1CCN(c2ccc(-n3ccnc3)cc2)C1=O)C(O)(Cn1cncn1)c1ccc(F)cc1F,TA,0.004 µg/mL
CCCCOc1ccc(CC(=O)Nc2ccc3oc(-c4ccccc4)nc3c2)cc1,RSKK 628,25 µg/mL
CC(C)=CCCC(C)CCOC(Cn1ccnc1)c1ccc(Cl)cc1Cl,TIMM0144,20–40 µg/mL
CCCCCCCCCC[C@H]1NC(=O)[C@H](CC(C)(C)C)NC(=O)[C@H](CCCCN)NC(=O)CNC(=O)[C@H]1O,-,16 µg/mL
O=C(Nc1ccc2oc(-c3ccccc3)nc2c1)c1ccc(F)cc1,RSKK 628,50 µg/mL

The last 3 rows once more:

structure,strain or isolate,result
CC(C)=CCCC(C)CCOC(Cn1ccnc1)c1ccc(Cl)cc1Cl,TIMM0144,20–40 µg/mL
CCCCCCCCCC[C@H]1NC(=O)[C@H](CC(C)(C)C)NC(=O)[C@H](CCCCN)NC(=O)CNC(=O)[C@H]1O,-,16 µg/mL
O=C(Nc1ccc2oc(-c3ccccc3)nc2c1)c1ccc(F)cc1,RSKK 628,50 µg/mL

a–b is a range or a potency band. An empty or dashed field is not shown.